Results of unrelated studies side by side (data: NIAID ChemDB).

Shared fields: target-level tests; species: HIV-1; protein: Reverse transcriptase; measure: fold resistance

Two numbers with a dash give a range or band.

structure | strain or isolate | changes | read by | value
O=c1cc(Cc2ccccc2)nc(SCCCCO)[nH]1 | - | RT-Y188L | - | 2.07
CC(C)=CCOc1cc(NC(=S)c2ccsc2C)ccc1Cl | - | RT-M184V | - | 4
Cc1c(Cc2ccccc2)nc(NCCCCN)[nH]c1=O | - | RT-L100I | - | >10.3
CCN1c2ncc(CCOc3ccc(-c4ccc(CCC(=O)O)o4)cc3)cc2C(=O)N(C)c2cccnc21 | IIIB | RT-K103N Y181C | nucleotide incorporation / radiometric | >2
CCN1c2ncc(CCOc3ccc(NC(=O)CCC(=O)O)c4ccccc34)cc2C(=O)N(C)c2cccnc21 | - | RT-Y188L | nucleotide incorporation / radiometric | >10
CCN1c2ncc(CCOc3ccc(-c4ccc(Cl)c(CC(=O)O)c4)cc3C)cc2C(=O)N(C)c2cccnc21 | IIIB | RT-K103N Y181C | nucleotide incorporation / radiometric | 1
CCN1c2ncc(CCOc3ccc(C(=O)O)c4ccccc34)cc2C(=O)N(C)c2ccc(C)nc21 | - | RT-Y188L | nucleotide incorporation / radiometric | >10
CCN1c2ncc(CCOc3ccc(-c4cccnc4)cc3C)cc2C(=O)N(C)c2cccnc21 | IIIB | RT-K103N Y181C | nucleotide incorporation / radiometric | 1
CCN1c2ncc(CCOc3ccc4cc(CC(=O)O)ccc4c3)cc2C(=O)N(C)c2cccnc21 | - | RT-Y188L | nucleotide incorporation / radiometric | >10
CCN1c2ncc(CCOc3ccc(-c4cn(C)cn4)cc3C)cc2C(=O)N(C)c2cccnc21 | IIIB | RT-K103N Y181C | nucleotide incorporation / radiometric | 1
CC(C)=CCOc1cc(NC(=S)c2ccoc2C)ccc1Cl | - | RT-K103N | - | 6.97
CCN1c2ncc(CCOc3ccc(-c4ccc(C(=O)O)o4)cc3)cc2C(=O)N(C)c2cccnc21 | IIIB | RT-K103N Y181C | nucleotide incorporation / radiometric | >1
CCN1c2ncc(CCOc3ccc(C(=O)O)c4c3CCN(C(=O)OC(C)(C)C)C4)cc2C(=O)N(C)c2cccnc21 | - | RT-Y188L | nucleotide incorporation / radiometric | 1–10
CCc1cc(NCc2nc3c(C)ccc(C)c3o2)c(=O)[nH]c1C | - | RT-Y181I | nucleotide incorporation | >6000
CCN1c2ncc(CCOc3ccc(C(=O)O)c4c3CCN(S(C)(=O)=O)C4)cc2C(=O)N(C)c2cccnc21 | - | RT-V106A | nucleotide incorporation / radiometric | >10
COC(=O)NCCCCNc1nc(Cc2ccccc2)c(C)c(=O)[nH]1 | - | RT-L100I | - | 3.04
Cc1cc(-c2ccc[n+]([O-])c2)ccc1OCCc1cnc2c(c1)C(=O)N(C)c1cccnc1N2C1CC1 | IIIB | RT-K103N Y181C | nucleotide incorporation / radiometric | >2
CCN1c2ncc(CCOc3ccc(NS(C)(=O)=O)c4ccccc34)cc2C(=O)N(C)c2ccc(F)nc21 | - | RT-Y188L | nucleotide incorporation / radiometric | 1–10
Nc1nc2c(ncn2[C@H]2CC[C@@H](COP(=O)(O)OP(=O)(O)OP(=O)(O)O)O2)c(=O)[nH]1 | - | RT-Y188L | nucleotide incorporation | 0.5
CCN1c2ncc(CCOc3ccc(CC(=O)NN)c4ccccc34)cc2C(=O)N(C)c2cccnc21 | - | RT-V106A | nucleotide incorporation / radiometric | 1–10
CCN1c2ncc(CCOc3ccc(-c4cnc(C)c(C)c4)cc3C)cc2C(=O)N(C)c2cccnc21 | IIIB | RT-K103N Y181C | nucleotide incorporation / radiometric | 1

Rows are shuffled and stem from different studies. Fold resistance has wild type as its base. An empty or dashed field is not shown.